# Mutational scan of HIV-1 Vif (1203) in cells with APOBEC3G

Values reported by Langley et al. 2025, preprint (doi:10.1101/2025.10.20.683452).

Vif of 1203 (a subtype B primary isolate), residues 12-115; positions count from the first residue of the whole protein:
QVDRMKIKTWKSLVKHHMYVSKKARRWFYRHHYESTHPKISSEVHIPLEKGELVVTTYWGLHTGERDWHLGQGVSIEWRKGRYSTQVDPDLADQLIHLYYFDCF

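A pool of vif mutants was passaged twice, 72 h each, on SupT1 cells that express APOBEC3G. Each of three replicates was sequenced after round two and set against the merged round-one pool.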

The score is log2 enrichment against the wild-type codon: higher is better tolerated, lower is depleted. Substitutions are written as wild-type residue, site number, new residue. All changes here are to phenylalanine. The median of three replicates is given. Input reads are the counts in the merged round-one pool, before selection. Some changes are missing from the data or left out. The authors note that some positive scores may be noise, and some enriched variants failed when tested singly. Replicates agree only moderately (rank correlation about 0.4-0.65); scores from under about 50 input reads tend to be too high.

* Q12F (input reads 263): -1.98
* D14F (input reads 60): -4.34
* R15F (input reads 362): -2.17
* K17F (input reads 69): -2.98
* K19F (input reads 1503): 0.60
* T20F (input reads 37): 0.08
* S23F (input reads 277): -1.90
* L24F (input reads 62): 0.64
* V25F (input reads 197): -1.83
* M29F (input reads 243): -0.58
* Y30F (input reads 508): -2.29
* K34F (input reads 218): 2.34
* W38F (input reads 157): -1.08
* H42F (input reads 282): -1.21
* H43F (input reads 39): 1.05
* Y44F (input reads 23): -0.31
* S46F (input reads 32): -0.14
* H48F (input reads 102): -2.76
* K50F (input reads 19): -0.01
* V55F (input reads 317): -2.35
* L59F (input reads 258): -2.26
* E60F (input reads 19): 0.82
* L64F (input reads 66): -0.56
* V65F (input reads 243): -1.65
* T67F (input reads 79): -2.03
* L72F (input reads 1199): -1.93
* T74F (input reads 187): 2.33
* E76F (input reads 957): -2.02
* L81F (input reads 292): -4.36
* G82F (input reads 408): -2.87
* G84F (input reads 761): -1.71
* V85F (input reads 271): -1.86
* S86F (input reads 22): 1.72
* R90F (input reads 444): -2.74
* G92F (input reads 191): -2.60
* Y94F (input reads 353): -2.54
* V98F (input reads 49): -2.48
* D101F (input reads 277): -2.23
* L102F (input reads 190): -1.21
* D104F (input reads 408): -2.38
* Q105F (input reads 178): -0.66
* H108F (input reads 165): -1.48
* L109F (input reads 205): 1.33
* Y110F (input reads 144): -3.27
* Y111F (input reads 29): -0.49

Extract of 3 entries:

change	input reads	median score
K34F	218	2.34
V55F	317	-2.35
H48F	102	-2.76